Results published in patent publication US20250281536A1 (published 2025).

What was measured:
[1] = biological target: T1, Human CD4-Fc (human, UniProt P01730 26-390); assay: BLI; human CD4-Fc captured; binder-mouse Fc homodimer at 250 nM
T1 construct: not shown: Fc

[2] = biological target: T1, Human CD4-Fc; assay: BLI; human CD4-Fc captured; binder-mouse Fc homodimer at 500 nM

B1: Binder 387 expressed as homodimer with mouse Fc (Fc fusion)
chain: DLGKKLLEAARAGQDDEVRILMANGADVNAMDHFGFTPLHLAAKVGHLEIVEVLLKYGADVNADDMDGETPLHLAAAIGHLEIVEVLLKNGADVNAHDTWGFTPLHLAASYGHLEIVEVLRKYGADVNAQDKFGETTFDISIDNGNEDLAEILQKLN
notes: not shown: mouse Fc
**Q.** What does the source list for B1?
**A.** koff [1]: 1.75e-05 s⁻¹; kon [1]: 24700 M⁻¹ s⁻¹

B2: Binder 256 expressed as homodimer with mouse Fc (Fc fusion)
chain: EVQLVESGGGLVQSGGSLRLSCAASGFTFSGYWMYWVRQAPGKGLEWVSAISPGGGSTYYPDSVKGRFTISRDNAKNTLYLQMNSLEPEDTALYYCASSLTATHTYEYDYWGQGTQVTVSS
notes: also called VHH4; not shown: mouse Fc
**Q.** What does the source list for B2?
**A.** Kd [2]: 5.14 nM; koff [2]: 0.00046 s⁻¹; kon [2]: 89500 M⁻¹ s⁻¹
